The list shows a part of the results, in another mix than the full data. Results filed as inconclusive are left out. Some salts or complexes appear as unconnected parts, following the source record. Calls of active or inactive are those of the source. Calls come from the whole dose curve; tested in A549 cells.
assay: qHTS for Stage-Specific Inhibitors of Vaccinia Orthopoxvirus: Venus Reporter Primary qHTS; conditions: Vaccinia virus Venus reporter expression, fluorescence; at 36.5 µM (top of the series); note: nearly all actives have a fitted effect of over 30% in size
% is set by controls: 0 for no effect and ±100 for the full control effect.

Q: Which activity change, negative = inhibition does the source give for `Cc1ccc(NC2(C#N)CCN(Cc3ccccc3)CC2)cc1` here?
A: inactive: -13.9%

Q: For `CCC(c1nnnn1C1CCCCC1)N1CCC(n2c(=O)[nH]c3ccccc32)CC1` (configuration not stated), which activity change, negative = inhibition is on record?
A: inactive: -13.6%

Q: For `CN(C)C1(CNC(=O)c2ccc(C(C)(C)C)cc2)CCCCC1`, which activity change, negative = inhibition is on record?
A: inactive: -7.78%

Q: Which activity change, negative = inhibition does the source give for `COc1cccc(C(c2nnnn2C2CCCCC2)N2CCC(n3c(=O)[nH]c4ccccc43)CC2)c1OC` (configuration not stated) here?
A: inactive: -27.4%

Q: For `CC(=O)N(c1ccccc1)C1CCNCC1`, which activity change, negative = inhibition is on record?
A: inactive: 0%

Q: Which activity change, negative = inhibition does the source give for `COc1cc(OC)cc(C(=O)NCC2(N3CCCCC3)CCCCC2)c1` here?
A: inactive: 7%

Q: Which activity change, negative = inhibition does the source give for `O=c1[nH]c2ccccc2n1C1CCN(C(c2ccnc3ccccc23)c2nnnn2C2CCCCC2)CC1` (configuration not stated) here?
A: inactive: -17.8%

Q: Which activity change, negative = inhibition does the source give for `COc1cc(C(=O)NCC2(N(C)C)CCCCC2)ccc1OC(F)F` here?
A: inactive: -20%

Q: For `O=c1[nH]c2ccccc2n1C1CCN(C(c2cccc3ccccc23)c2nnnn2C2CCCC2)CC1` (configuration not stated), which activity change, negative = inhibition is on record?
A: inactive: -21.9%

Q: For `O=c1[nH]c2ccccc2n1C1CCN(C(c2ccccc2)c2nnnn2C2CCCCC2)CC1` (configuration not stated), which activity change, negative = inhibition is on record?
A: inactive: -24.3%

Q: For `COc1ccccc1C(=O)NCC1(N2CCOCC2)CCCCC1`, which activity change, negative = inhibition is on record?
A: inactive: -0.341%

Q: Which activity change, negative = inhibition does the source give for `CCCCOc1ccc(C(=O)NCC2(N3CCOCC3)CCCCC2)cc1` here?
A: inactive: -7.9%

Q: With `CCCCn1nnnc1C(c1cc2ccccc2o1)N1CCC(n2c(=O)[nH]c3ccccc32)CC1` (configuration not stated) as the compound, how does the activity change, negative = inhibition read?
A: inactive: -20.9%

Q: Which activity change, negative = inhibition does the source give for `O=P1(N(CCCl)CCCl)SCCCS1` here?
A: inactive: -6%

Q: Which activity change, negative = inhibition does the source give for `O=C(NCC1(N2CCCCC2)CCCCC1)c1ccc(F)cc1` here?
A: inactive: -2.33%

Q: For `O=C1CCN(Cc2ccccc2)CC1`, which activity change, negative = inhibition is on record?
A: inactive: -8.31%

Q: Which activity change, negative = inhibition does the source give for `O=C(NCC1(N2CCOCC2)CCCCC1)c1ccc(Cl)cc1` here?
A: inactive: 4.66%

Q: With `CC(C)(C)n1nnnc1C(c1ccccc1)N1CCC(n2c(=O)[nH]c3ccccc32)CC1` (configuration not stated) as the compound, how does the activity change, negative = inhibition read?
A: inactive: -1.96%

Q: With `CCOc1ccc(C)cc1CN(CCCl)CCCl` as the compound, how does the activity change, negative = inhibition read?
A: inactive: -9.69%

Q: For `COc1ccc(Cl)cc1C(=O)NCC1(N2CCOCC2)CCCCC1`, which activity change, negative = inhibition is on record?
A: inactive: -10.3%

Q: For `O=C1C(O)=C([N+](=O)[O-])C(=O)C(O)=C1[N+](=O)[O-]`, which activity change, negative = inhibition is on record?
A: inactive: 4.4%

Q: For `O=C(NCC1(N2CCCCC2)CCCCC1)c1ccc(Cl)s1`, which activity change, negative = inhibition is on record?
A: inactive: -12.3%

Q: For `O=c1[nH]c2ccccc2n1C1CCN(C(c2cc3ccccc3o2)c2nnnn2C2CCCCC2)CC1` (configuration not stated), which activity change, negative = inhibition is on record?
A: inactive: -14.3%

Q: Which activity change, negative = inhibition does the source give for `O=C(OC1CN2CCC1CC2)C1c2ccccc2Oc2ccccc21` (configuration not stated) here?
A: inactive: -8.92%

Q: Which activity change, negative = inhibition does the source give for `CCCCn1nnnc1C(c1ccc(OC)cc1)N1CCC(n2c(=O)[nH]c3ccccc32)CC1` (configuration not stated) here?
A: inactive: -10.1%

Q: With `Cc1cc(C)cc(N(C(=O)c2ccccc2)C2CCN(C(=O)OC(C)(C)C)CC2)c1` as the compound, how does the activity change, negative = inhibition read?
A: inactive: -19.9%

Q: For `O=C(NCC1(N2CCCCC2)CCCCC1)c1ccc(Cl)nc1`, which activity change, negative = inhibition is on record?
A: inactive: -8.71%

Q: With `O=c1[nH]c2ccccc2n1C1CCN(C(c2ccccc2OC(F)(F)F)c2nnnn2C2CCCCC2)CC1` (configuration not stated) as the compound, how does the activity change, negative = inhibition read?
A: inactive: -18.5%

Q: Which activity change, negative = inhibition does the source give for `O=C(NCC1(N2CCOCC2)CCCCC1)c1cc2ccccc2o1` here?
A: inactive: -17.8%

Q: For `Cc1cccc(NC2(C#N)CCN(Cc3ccccc3)CC2)c1`, which activity change, negative = inhibition is on record?
A: inactive: -7.85%

Q: For `CSc1ccccc1C(=O)NCC1(N2CCCCC2)CCCCC1`, which activity change, negative = inhibition is on record?
A: inactive: -2.71%

Q: With `COc1ccc(C(=O)NCC2(N3CCCCC3)CCCCC2)c(OC)c1OC` as the compound, how does the activity change, negative = inhibition read?
A: inactive: -17.5%

Q: For `CCC(c1nnnn1C1CCCC1)N1CCC(n2c(=O)[nH]c3ccccc32)CC1` (configuration not stated), which activity change, negative = inhibition is on record?
A: inactive: 10.8%

Q: For `COc1ccc(C(=O)NCC2(N3CCCCC3)CCCCC2)cc1`, which activity change, negative = inhibition is on record?
A: inactive: 2.55%

Q: For `O=C(NCC1(N2CCCCC2)CCCCC1)c1cccs1`, which activity change, negative = inhibition is on record?
A: inactive: -8.55%

Q: With `CCCCn1nnnc1C(CC)N1CCC(n2c(=O)[nH]c3ccccc32)CC1` (configuration not stated) as the compound, how does the activity change, negative = inhibition read?
A: inactive: -5.25%

Q: Which activity change, negative = inhibition does the source give for `CCCCn1nnnc1C(c1cccs1)N1CCC(n2c(=O)[nH]c3ccccc32)CC1` (configuration not stated) here?
A: inactive: -7.33%

Q: For `COc1ccc(C(c2nnnn2C2CCCC2)N2CCC(n3c(=O)[nH]c4ccccc43)CC2)cc1` (configuration not stated), which activity change, negative = inhibition is on record?
A: inactive: -13.7%

Q: With `O=[N+]([O-])c1cc([N+](=O)[O-])c(Nc2ccc(Cl)cc2)c([N+](=O)[O-])c1` as the compound, how does the activity change, negative = inhibition read?
A: inactive: -20.2%

Q: With `O=C(NCC1(N2CCOCC2)CCCCC1)c1ccccc1Br` as the compound, how does the activity change, negative = inhibition read?
A: inactive: 8.37%

Q: With `CCCOc1ccc(C(=O)NCC2(N(C)C)CCCCC2)cc1OC` as the compound, how does the activity change, negative = inhibition read?
A: inactive: -0.787%

Q: With `CCCCOc1ccccc1C(=O)NCC1(N2CCOCC2)CCCCC1` as the compound, how does the activity change, negative = inhibition read?
A: inactive: -23.7%

Q: With `Cc1ccc(C(=O)NCC2(N(C)C)CCCCC2)o1` as the compound, how does the activity change, negative = inhibition read?
A: inactive: -6.5%

Q: For `O=C(OC1CN2CCC1CC2)c1ccc([N+](=O)[O-])cc1` (configuration not stated), which activity change, negative = inhibition is on record?
A: inactive: 19.8%

Q: Which activity change, negative = inhibition does the source give for `CN1CCC(Nc2cccc(F)c2)CC1` here?
A: inactive: -10.1%

Q: For `COc1ccc2c(c1O)-c1c(O)c(OC)cc3c1[C@H](C2)[N+](C)(C)CC3.O=[N+]([O-])c1cc([N+](=O)[O-])c([O-])c([N+](=O)[O-])c1[O-]`, which activity change, negative = inhibition is on record?
A: inactive: -8.06%

Q: Which activity change, negative = inhibition does the source give for `O=C(NCC1(N2CCCCC2)CCCCC1)c1cncc(Br)c1` here?
A: inactive: -3.47%

Reference: PubChem BioAssay AID720580 (National Center for Advancing Translational Sciences (NCATS), 2013)
